Test results: article PMC3251565, “Effect of P to A Mutation of the N-Terminal Residue Adjacent to the Rgd Motif on Rhodostomin: Importance of Dynamics in Integrin Recognition” (2012)

Target: integrin α5β1 on K562 cells (human (endogenous in K562)) (UniProt P08648)

Row | Substance | IC50 of inhibition of K562 cell (integrin α5β1) adhesion to fibronectin [nM]
1 | Rhodostomin M52W mutant (natural protein) | 404
2 | Rhodostomin P48A/M52N mutant (natural protein) | 44.1
3 | Rhodostomin P48A/M52D/P53M mutant (natural protein) | 351
4 | Rhodostomin P48A/M52D/P53L mutant (natural protein) | 527
5 | Rhodostomin M52D/P53L mutant (natural protein) | 3020
6 | Rhodostomin M52G/P53W mutant (natural protein) | 1240
7 | Rhodostomin M52D/P53M mutant (natural protein) | 4050
8 | Rhodostomin P48A/M52W mutant (natural protein) | 52
9 | Rhodostomin M52N mutant (natural protein) | 357
10 | Rhodostomin P48A/M52G/P53W mutant (natural protein) | 191

Target: integrin α5β1 on K562 cells (human (endogenous in K562)) (UniProt P08648)
Remark: another data set of the same source

Row | Substance | IC50 of inhibition of K562 cell (integrin α5β1) adhesion to fibronectin [nM]
11 | Rhodostomin P48L mutant (natural protein) | 283
12 | Rhodostomin P48G mutant (natural protein) | 92.2
13 | Rhodostomin P48F mutant (natural protein) | 282
14 | Rhodostomin P48W mutant (natural protein) | 193
15 | Rhodostomin P48Y mutant (natural protein) | 311
16 | Rhodostomin P48I mutant (natural protein) | 282
